Tested on: serum antibody of EBV CFS positive versus negative/healthy sera
Assay: Luminex antigen-bead serum antibody assay (specificity of EBV recombinant antigens)
Type: binding, human
Conditions: for signal differential between negative and positive serum samples: Reference Serum Test, all concentrations tested; for signal differential between known EBV positive and other samples (negative and healthy sera): summary incl. healthy serum test

Molecule: BALF5: recombinant EBV DNA polymerase catalytic subunit antigen, yeast derived
- signal differential between negative and positive serum samples: do not
- signal differential between known EBV positive and other samples (negative and healthy sera): no signal differential was observed

B1: BMRF1: recombinant EBV DNA polymerase processivity factor, EA-D polymerase accessory subunit, yeast derived antigen (protein, UniProt P03191 1-404, looked up)
DNA polymerase processivity …: METTQTLRFKTKALAVLSKCYDHAQTHLKGGVLQVNLLSVNYGGPRLAAVANAGTAGLISFEVSPDAVAEWQNHQSPEEAPAAVSFRNLAYGRTCVLGKELFGSAVEQASLQFYKRPQGGSRPEFVKLTMEYDDKVSKSHHTCALMPYMPPASDRLRNEQMIGQVLLMPKTASSLQKWARQQGSGGVKVTLNPDLYVTTYTSGEACLTLDYKPLSVGPYEAFTGPVAKAQDVGAVEAHVVCSVAADSLAAALSLCRIPAVSVPILRFYRSGIIAVVAGLLTSAGDLPLDLSVILFNHASEEAAASTASEPEDKSPRVQPLGTGLQQRPRHTVSPSPSPPPPPRTPTWESPARPETPSPAIPSHSSNTALERPLAVQLARKRTSSEARQKQKHPKKVKQAFNPLI
modifications: yeast-expressed recombinant
notes: recombinant EBV DNA polymerase processivity factor, EA-D polymerase accessory subunit, yeast derived antigen
- signal differential between negative and positive serum samples: produces a signal differential
- signal differential between known EBV positive and other samples (negative and healthy sera): differential signal in every serum sample tested

B2: BLLF3A: recombinant EBV dUTPase, deoxyuridine triphosphatase antigen, yeast-derived (protein, UniProt P03195 1-278, looked up)
Deoxyuridine 5'-triphosphate …: MEACPHIRYAFQNDKLLLQQASVGRLTLVNKTTILLRPMKTTTVDLGLYARPPEGHGLMLWGSTSRPVTSHVGIIDPGYTGELRLILQNQRRYNSTLRPSELKIHLAAFRYATPQMEEDKGPINHPQYPGDVGLDVSLPKDLALFPHQTVSVTLTVPPPSIPHHRPTIFGRSGLAMQGILVKPCRWRRGGVDVSLTNFSDQTVFLNKYRRFCQLVYLHKHHLTSFYSPHSDAGVLGPRSLFRWASCTFEEVPSLAMGDSGLSEALEGRQGRGFGSSGQ
modifications: yeast-expressed recombinant
notes: recombinant EBV dUTPase, deoxyuridine triphosphatase antigen, yeast-derived
- signal differential between negative and positive serum samples: do not
- signal differential between known EBV positive and other samples (negative and healthy sera): no signal differential was observed
